This data set deals with mold and mold stains. The experiment in a line: Mold kill and mold stain removal study: vapor from acidified 6.0% NaOCl diluted in water, in a 1400 cc container. The data set is classed as cell-based. The following applies: gas versus liquid bleach. The method, then: First, the recommended concentration of HOCl for sanitization of surfaces according to the prior art is calculated. Referring to the label of Ultra Chlorox® brand of sodium hypochlorite and noticing that a recommended concentration of NaOCl for mold and mildew stain removal is 3⁄4 cup Ultra Chlorox® plus one gallon of water. Ultra Chlorox® contains 6.00% NaOCl per the label. […] For the mold remediation studies, 5 mL of 6.0% NaOCl was mixed with 50 mL of water, acidified and was placed in a container with a volume of 1400 cc. • 5 mL of 6.0% NaOCl=0.30 g NaOCl • Assuming all of the NaOCl is converted to HOCl: • 0.30 g NaOCl=(0.30 g NaOCl)(52.5 g HOCl)/(74.5 g NaOCl)=0.21 g HOCl This quantity of HOCl is diluted to 1400 cc. Therefore, the maximum concentration of HOCl gas in the container studied is: • 0.21 g HOCl/1400 cc=15×10^-5 g HOCl/cc […]

As to `OCl` [hypochlorous acid], the “concentration needed for mold cidal activity and removal of mold stains as gas, times less than recommended for liquid hypochlorite bleach” value is “at least 13 times”.

For the origin of these results see patent US7144551B2, “Mold remediation system and method” (DH Technologies, L.L.P., priority 2002, dated 2006).
